This experiment has as its target bovine lactoferrin (Lf) (bovine) (UniProt P24627). Put plainly: BLI; holo-Lf. Particulars: natural protein.

The substance “Moraxella bovis lactoferrin-binding protein B (LbpB), full-length (from UniProt H9KVH9 1-341)” yielded a Kd of 86.7 nM.

The values are drawn from publication PMC11022072, “A secreted bacterial protein protects bacteria from cationic antimicrobial peptides by entrapment in phase-separated droplets” (2024).
